Results of unrelated studies side by side (data: NIAID ChemDB).

Common to all: whole-cell or culture tests; organism: Mycobacterium tuberculosis

ECn is the concentration giving n% inhibition of infection, replication or growth. A number after MIC or MFC names an inhibition level or a share of isolates. An empty or dashed field is not shown. MIC bound comes from a single tested concentration. Percent inhibition refers to the dose given; in toxicity tests it is the harm to the cells. Conditions beyond the fields shown may differ between rows.

SMILES | tested at | strain or isolate | read-out | read by | cells | result
O=C(O)C1CCCC(C(=O)O)N1 | - | - | MIC90 | broth dilution | - | 43 µg/mL
CC[C@@H](CO)NCC[C@H]1O[C@H](O[C@H]2O[C@H](CCN[C@@H](CC)CO)[C@@H](O)[C@H](O)[C@H]2O)[C@H](O)[C@@H](O)[C@@H]1O | - | H37Ra | MIC | - | - | >128 µg/mL
Cc1ccc(NCCN(C)C)c2c(=O)c3cccc(O)c3sc12 | - | H37Rv | MIC bound | BACTEC | - | ≤12.5 µg/mL
O=S([O-])c1ccc(Cl)cc1.[Na+] | - | H37Rv | MIC | - | - | 100 µg/mL
CCn1cc(C(=O)O)c(=O)c2cc(F)c(N3CCN(C)CC3)cc21 | - | H37Ra | MIC | - | - | 2 µg/mL
CN(C)c1ccc(-c2nc3ccccc3s2)c(Cl)c1 | 12.5 µg/mL | H37Rv | inhibition | BACTEC | - | 35%
CC1(C)C=Cc2c(cc3oc(-c4ccc(O)cc4)cc(=O)c3c2O)O1 | - | - | MIC | agar / visual reading | - | 110 µg/mL
NC(N)=NC(N)=Nc1cnccn1 | 6.25 µg/mL | H37Rv | inhibition | resazurin | - | 25%
Cc1ccc(S(=O)(=O)[N-]Cl)cc1.[Na+] | - | H37Rv | MIC | - | - | >100 µg/mL
S=c1ncc2c([nH]1)-c1[nH]c3ccccc3c1CCC2 | 50 µg/mL | H37Rv | inhibition | resazurin | - | 0%
COc1ccc(OC)c2c(Cl)cc(N(C)C)nc12 | - | H37Rv | MIC bound | BACTEC | - | >12.5 µg/mL
NC[C@H]1O[C@H](O[C@H]2[C@H](O)[C@@H](O)[C@H](N)C[C@@H]2N)[C@H](N)[C@@H](O)[C@@H]1O | - | H37Rv | MIC | resazurin / absorbance | - | 0.55 µM
Cc1cc(C)c2cc(C(=O)NC3CCCCCC3)[nH]c2c1 | - | H37Rv | MIC90 | visual reading / absorbance | - | 0.013 µM
NC(Cc1ccc(Cl)cc1Cl)C(=O)O | - | H37Rv | MIC | - | - | 12.5 µg/mL
Cc1ccc2c3c([nH]c2c1)C(=O)/C(=C/O)CCC3 | 50 µg/mL | H37Rv | inhibition | resazurin | - | 0%
O=NN1C(=O)c2ccccc2C1=O | - | H37Rv | MIC | - | - | >100 µg/mL
CC(=O)O[C@H]1CC[C@@]2(C)C(=CC[C@H]3[C@@H]4CC[C@]5(O[C@@H]6C[C@H](C)CN[C@H]6[C@H]5C)C(C)=C4C(=O)[C@@H]32)C1 | - | H37Rv | MIC bound | BACTEC | - | >12.5 µg/mL
CCCCc1nc(Cl)c(C2C(C(=O)Nc3ccc(Cl)cc3)=C(C)NC(C)=C2C(=O)Nc2ccc(Cl)cc2)[nH]1 | - | H37Rv | MIC | - | - | 1.56 µg/mL
S=c1oc2ccc(Cl)cc2c(=S)n1-c1ccc(Cl)c(Cl)c1 | - | My 331/88 | MIC | - | - | 2 µM
CN1CCc2cc3c(c4c2C1C(O)c1ccccc1-4)OCO3.Cl | 12.5 µg/mL | H37Rv | inhibition | BACTEC | - | 38%
CCN(CC)Cc1cc(N(c2cc(C)nc3cc(Cl)ccc23)S(=O)(=O)c2ccc([N+](=O)[O-])cc2)ccc1O | - | H37Rv | MIC | agar | - | 3.12 µg/mL
Br.CCN(CC)CCCOc1ccccc1 | - | H37Rv | MIC | - | - | 250 µg/mL
C=C[C@](C)(O)CC[C@H]1C(=C)CC[C@H]2C(C)(C)[C@@H](OC(C)=O)CC[C@]12C | - | - | MIC | - | - | >100 µg/mL
C=C1OC(=O)C(N)=C1C(C)=O | 12.5 µg/mL | H37Rv | inhibition | BACTEC | - | 15%
Nc1cccc2c1C(=O)NC2=O | - | H37Rv | MIC | - | - | >100 µg/mL
COc1ccc(C2=C(c3ccc(OC)cc3)c3c(OC)cc(OC)cc3OC2)cc1 | - | H37Rv | MIC bound | BACTEC | - | >12.5 µg/mL
Cc1cc(C(=O)O)cc([N+](=O)[O-])c1N | - | H37Rv | MIC | - | - | >100 µg/mL
O=C1ONN(c2ccccc2)/C1=C\N=Nc1ncnc2nc[nH]c12 | 12.5 µg/mL | H37Rv | inhibition | BACTEC | - | 0%
Clc1cnc2ccccc2c1 | - | H37Rv | MIC | - | - | >100 µg/mL
Cc1ccc(-n2c(=O)oc3ccc(Cl)cc3c2=O)cc1 | - | My 331/88 | MIC | - | - | 16 µM
CC(C)CCNc1nc(N)[nH]c(=O)c1NC=O | - | H37Rv | MIC bound | BACTEC | - | >12.5 µg/mL
Cl.NCc1cccc2ccccc12 | - | H37Rv | MIC | - | - | 125 µg/mL
O=C(NC12CC3CC(CC(C3)C1)C2)c1cc(=O)c2cc(Cl)cc(Cl)c2[nH]1 | - | H37Rv | MIC90 | visual reading / absorbance | - | 40.89 µM
O=C1c2c(O)ccc(O)c2C(=O)c2c(NCCNCO)ccc(NCCNCO)c21 | - | - | MIC | - | - | 400 µM
CC[C@H](CO)NCC[C@H]1O[C@H](O[C@H]2O[C@H](CCN[C@H](CC)CO)[C@@H](O)[C@H](O)[C@H]2O)[C@H](O)[C@@H](O)[C@@H]1O | - | H37Ra | MIC | - | - | >128 µg/mL
CCCCCc1nc2c(C)c3c4c(c2o1)[C@@H](C)CC[C@@H]4[C@@H](C)C[C@H]3C=C(C)C | - | H37Rv | MIC | - | - | 12.5 µg/mL
NC(=S)Nc1cccc(O)c1 | - | H37Rv | MIC | - | - | 50 µg/mL
O=c1oc2ccc(Cl)cc2c(=O)n1-c1cccc(Cl)c1 | - | My 331/88 | MIC | - | - | 16 µM
CCCCc1nc(Cl)c(C2C(C(=O)Nc3ccccc3OC)=C(C)NC(C)=C2C(=O)Nc2ccccc2OC)[nH]1 | 6.25 µg/mL | H37Rv | inhibition | resazurin | - | 52%
O=c1oc2ccc(Cl)cc2c(=S)n1-c1ccccc1 | - | My 331/88 | MIC | - | - | 1 µM
CCCCCCCCCCc1cn(Cc2cn([C@H]3C[C@H](O)[C@@H](CO)O3)c(=O)[nH]c2=O)nn1 | - | MS-115 | MIC99 | - | VERO Cell line | 10 µg/mL
Nc1ccc(C(=O)c2ccccc2C(=O)O)cc1N | - | H37Rv | MIC | - | - | >100 µg/mL
C[C@H]1COc2c(N3CCN(C)CC3)c(F)cc3c(=O)c(C(=O)O)cn1c23 | - | MS-115 | MIC99 | - | VERO Cell line | 2 µg/mL
COP(=O)(OC)OC | - | H37Rv | MIC | - | - | >100 µg/mL
Cc1ccc2c3c([nH]c2c1)-c1[nH]c(=O)ncc1CCC3 | 50 µg/mL | H37Rv | inhibition | resazurin | - | 0%
COC(=O)c1c(Cc2ccccc2)n([O-])c2cc(Cl)c(Cl)cc2[n+]1=O | - | H37Rv | MIC | - | - | >6.25 µg/mL
CCN(CC)Cc1cc(N(c2cc(C)nc3cc(Cl)ccc23)S(=O)(=O)c2cccc(Cl)c2Cl)ccc1O | - | H37Rv | MIC | agar | - | 3.12 µg/mL
Nc1ccc(Sc2ccc([N+](=O)[O-])cc2)cc1 | - | H37Rv | MIC | - | - | 50 µg/mL
CCCCCCCCCCc1cn(Cc2cn([C@H]3C[C@H](O)[C@@H](CO)O3)c(=O)nc2N)nn1 | - | MS-115 | MIC99 | - | VERO Cell line | 50 µg/mL
CCN(CC)Cc1cc(N(c2cc(C)nc3cc(Cl)ccc23)S(=O)(=O)c2ccc(Cl)s2)ccc1O | - | H37Rv | MIC | agar | - | 6.25 µg/mL
CCCCc1nc(Cl)c(C2C(C(=O)Nc3cccc(F)c3)=C(C)NC(C)=C2C(=O)Nc2cccc(F)c2)[nH]1 | 6.25 µg/mL | H37Rv | inhibition | resazurin | - | 82%
CCCCCN(CCCCC)CCNc1ccc(C)c2sc3ccccc3c(=O)c12 | - | H37Rv | MIC bound | BACTEC | - | >12.5 µg/mL
CCOC(=O)c1cc(C(=O)c2ccc(Br)cc2)n2c1ccc1cc(C)ccc12 | - | H37Ra | MIC | resazurin | - | 32 µg/mL
CCC(CO)NC[C@H]1OC(OC)[C@@H](O)[C@@H]1O | - | H37Ra | MIC | - | - | >128 µg/mL
CCCCc1nc(Cl)c(C2C(C(=O)Nc3ccc([N+](=O)[O-])cc3)=C(C)NC(C)=C2C(=O)Nc2ccc([N+](=O)[O-])cc2)[nH]1 | 6.25 µg/mL | H37Rv | inhibition | resazurin | - | 99%
CCC(CO)NC[C@@H]1O[C@H](CO)[C@@H](O)[C@@H]1O | - | H37Ra | MIC | - | - | >128 µg/mL
CC(=O)NC[C@H]1CN(c2ccc(N3CCSCC3)c(F)c2)C(=O)O1 | - | ss18b | MIC | resazurin | - | 0.4 µg/mL
CO[C@H]1/C=C/O[C@@]2(C)Oc3c(C)c(O)c4c(O)c(c(/C=N/N5CCN(C)CC5)c(O)c4c3C2=O)NC(=O)/C(C)=C\C=C\[C@H](C)[C@H](O)[C@@H](C)[C@@H](O)[C@@H](C)[C@H](OC(C)=O)[C@@H]1C | - | ATCC 35338 | MIC | broth dilution | - | >2 µg/mL
COc1ccc2cc3[n+](cc2c1O)CCc1cc2c(cc1-3)OCO2 | 12.5 µg/mL | H37Rv | inhibition | BACTEC | - | 0%
NNC(=O)c1ccncc1 | - | H37Rv | MIC99 | - | VERO Cell line | 0.1 µg/mL
Nc1ccc(N)c2c1C(=O)c1ccccc1C2=O | - | H37Rv | MIC | - | - | >100 µg/mL
c1ccc2c(c1)sc1nc3ccncc3nc12 | - | H37Rv | MIC bound | resazurin | - | >6.25 µg/mL
CC1=CCC[C@@H]2[C@@](C)(CC/C(C)=C/CO)[C@H](C)CC[C@@]12C | - | - | MIC | - | - | >100 µg/mL
CC(C)NC(=O)OCc1c(COC(=O)NC(C)C)c(-c2ccc(Cl)c(Cl)c2)n2c1C[C@@H](OC(=O)CN(C)C)C2 | - | H37Rv | MIC bound | resazurin | - | >6.25 µg/mL
S=C=Nc1ccc(Cl)cc1 | - | H37Rv | MIC | - | - | 50 µg/mL
CCCCc1nc(Cl)c(C2C(C(=O)Nc3ccccc3[N+](=O)[O-])=C(C)NC(C)=C2C(=O)Nc2ccccc2[N+](=O)[O-])[nH]1 | 6.25 µg/mL | H37Rv | inhibition | resazurin | - | 91%
O=C(O)c1c[nH]c2c(Cl)cccc2c1=O | - | H37Rv | MIC | - | - | >100 µg/mL
O=c1nc(N2CCC(c3ccccc3)CC2)sc2c([N+](=O)[O-])cc(C(F)(F)F)cc12 | - | 2745/09 MDR | MIC | - | - | ≤0.015 µg/mL
N#CCC(N)=O | - | H37Rv | MIC | - | - | >100 µg/mL
O=c1oc2ccc(Cl)cc2c(=O)n1-c1ccc(Br)cc1 | - | My 331/88 | MIC | - | - | 4 µM
C=C[C@@](C)(CC[C@H]1C(=C)CC[C@H]2C(C)(C)[C@@H](OC(C)=O)CC[C@]12C)OC(C)=O | - | - | MIC | - | - | >100 µg/mL
O=C(O)CCc1ccc(-c2ccccc2)n1-c1ccccc1 | - | H37Rv | MIC | - | - | >100 µg/mL
CC(C)[C@H](NC(=O)CNC(=O)[C@@H]1CCCN1C(=O)[C@H](C)NC(=O)[C@@H](NC(=O)OC(C)(C)C)C(C)C)C(=O)NCC(=O)OCc1ccccc1 | 12.5 µg/mL | H37Rv | inhibition | BACTEC | - | 20%
O=c1oc2ccc(Cl)cc2c(=S)n1-c1ccc(Cl)cc1 | - | My 331/88 | MIC | - | - | 0.5 µM
C[C@H](O)CC1=C[C@H](O)[C@@H](C)OC1=O | - | - | MIC90 | broth dilution | - | 55 µg/mL
Cc1c2cnccc2c(C)c2c1c1ccccc1n2CCN(C)C | 6.25 µg/mL | H37Rv | inhibition | resazurin | - | 100%
[N-]=[N+]=CC(=O)OC[C@H](N)C(=O)O | - | - | EC50 | broth dilution | - | <1 µg/mL
CCCCc1nc(Cl)c(C2C(C(=O)Nc3cccc(Cl)c3)=C(C)NC(C)=C2C(=O)Nc2cccc(Cl)c2)[nH]1 | 6.25 µg/mL | H37Rv | inhibition | resazurin | - | 82%
O=C1CN(C2CCCCC2)CC(=O)N2CCCCN12 | 12.5 µg/mL | H37Rv | inhibition | BACTEC | - | -6%
CCCCc1nc(Cl)c(C2C(C(=O)Nc3cccc(C)c3)=C(C)NC(C)=C2C(=O)Nc2cccc(C)c2)[nH]1 | 6.25 µg/mL | H37Rv | inhibition | resazurin | - | 56%
CCN1Cc2c(/C=C/c3ccccc3)nc3ccc(OC)cc3c2N(c2cccc(Cl)c2)C1 | - | H37Rv | MIC | BACTEC | - | >12.5 µg/mL
Cl.Nc1cscc1C(=O)O | - | H37Rv | MIC | - | - | 100 µg/mL
CC(=O)Nc1ccc(S(=O)(=O)NNc2nc(N3CCOCC3)nc(N3CCOCC3)n2)cc1 | - | H37Rv | MIC bound | BACTEC | - | >12.5 µg/mL
NNC(=O)c1ccncc1 | 0.46 µM | H37Rv | inhibition | luminescence | - | 90%
COc1ccc(CC2=CC(=O)C(C)=CC2=O)cc1 | - | H37Rv | MIC bound | BACTEC | - | ≤128 µg/mL
C=CCNc1ccc(C(=O)O)c(O)c1 | - | H37Rv | MIC | - | - | 100 µg/mL